# Molecular target: SARS-CoV Mac1 (Severe acute respiratory syndrome coronavirus, UniProt P0C6X7)
# Assay: DeMAR HTRF deMARylation assay, wash protocol
# Conditions: wash setup, 2 h, 80 nM macrodomain, 6 nM immobilized Tb-PARP10cat
compound,measurement,value
O=C(Nc1ccc(C(=O)NC2c3cccc(O)c3CC2C(=O)O)c(O)c1)NC1CC1 (stereo not shown) [Z8539_0072],IC50 SARS-CoV,Unq. ^a

# Reference: publication PMC11269945, “HTRF-based assay for detection of mono-ADP-ribosyl hydrolyzing macrodomains and inhibitor screening” (iScience, 2024)
